Data from publication PMC9426499, “The Specificity of ParR Binding Determines the Incompatibility of Conjugative Plasmids in Clostridium perfringens” (2018).

Molecular target: ParRC(pCW3) (Clostridium perfringens (plasmid pCW3))
Experiment: AUC

Substance: ParRC(pCW3) (natural protein)
- stoichiometry N: 4
